Key:
[1] = tested on: Zymoseptoria tritici field and genetically modified strains; assay: Liquid culture assay for fungicide sensitivity determination; format: cell-based; settings: respective to IPO323
Method: Sensitivity towards commercial fungicides was determined for a set of 99 SHA-SDHI-naïve Z. tritici field isolates sampled in Europe between 2006 and 2009. The EC50 of these isolates was determined in liquid growth assays and the data obtained compared for each possible pair of SDHI fungicides (cross-resistance (XR) plots, Fig 1). […] Comparative succinate-quinone reductase (SQR) enzyme inhibition tests were performed with mitochondria extracted from a panel of SHA-SDHIs tolerant and sensitive isolates.
In order to characterize in more depth the mechanisms driving sensitivity differences across the isolates, a subset of eight isolates carrying the ZtSDHC3 gene was analyzed for their sensitivity to SDHIs, alt-SDHC expression and splicing patterns. Liquid culture growth sensitivity tests were performed to determine EC50s for this set of isolates towards a wide range of commercial and research SDHIs (S5 Table).
Pre-culture of the inoculum and fungicide sensitivity tests were performed following previously described procedures. Different ranges of inhibitor concentrations were used for population monitoring and for the detailed phenotyping of a selected set of individual field isolates and genetically modified strains. For fungicide sensitivity monitoring of European field populations, final inhibitors concentrations were between 100 mg.L^-1 and 0.0001 mg.L^-1 with uniform 10x dilution steps (7 inhibitor concentrations + DMSO control). For refined sensitivity analysis of a smaller panel of isolates final inhibitor concentrations ranged between 0.5 mM and 0.47 nM with uniform 4x dilution factor steps (11 inhibitor concentrations+ DMSO control).

Chains of the proteins cited; added tags and fusions are not shown. Residues count along the entry.
UniProt F9X9V6, entry or part of it: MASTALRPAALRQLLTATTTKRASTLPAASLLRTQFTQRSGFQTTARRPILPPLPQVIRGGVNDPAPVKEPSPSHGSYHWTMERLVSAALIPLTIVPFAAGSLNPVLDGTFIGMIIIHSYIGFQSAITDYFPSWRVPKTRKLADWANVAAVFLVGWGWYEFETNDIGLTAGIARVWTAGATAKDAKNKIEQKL
UniProt F9XH52, entry or part of it: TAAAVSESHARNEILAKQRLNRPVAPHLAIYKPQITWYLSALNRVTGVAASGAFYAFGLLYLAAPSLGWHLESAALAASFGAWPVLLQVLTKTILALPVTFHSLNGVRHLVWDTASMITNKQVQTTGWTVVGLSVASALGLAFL
UniProt O42772, 19-297: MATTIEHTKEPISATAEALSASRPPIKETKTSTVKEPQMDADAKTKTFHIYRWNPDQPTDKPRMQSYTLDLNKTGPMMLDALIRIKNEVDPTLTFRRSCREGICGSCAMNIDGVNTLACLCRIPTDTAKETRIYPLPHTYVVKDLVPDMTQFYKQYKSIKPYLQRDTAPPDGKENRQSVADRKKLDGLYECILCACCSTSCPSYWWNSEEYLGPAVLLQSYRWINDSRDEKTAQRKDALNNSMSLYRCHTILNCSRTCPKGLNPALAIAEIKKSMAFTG
UniProt O42772, 20-297: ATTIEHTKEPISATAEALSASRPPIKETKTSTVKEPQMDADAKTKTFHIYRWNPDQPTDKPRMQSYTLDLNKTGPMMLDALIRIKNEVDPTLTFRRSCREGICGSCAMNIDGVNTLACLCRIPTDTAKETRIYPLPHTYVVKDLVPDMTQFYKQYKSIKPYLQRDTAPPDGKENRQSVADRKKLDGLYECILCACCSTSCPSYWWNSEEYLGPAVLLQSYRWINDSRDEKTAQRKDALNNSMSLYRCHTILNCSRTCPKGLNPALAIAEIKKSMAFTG
UniProt A0A1X7RQW2, 36-181: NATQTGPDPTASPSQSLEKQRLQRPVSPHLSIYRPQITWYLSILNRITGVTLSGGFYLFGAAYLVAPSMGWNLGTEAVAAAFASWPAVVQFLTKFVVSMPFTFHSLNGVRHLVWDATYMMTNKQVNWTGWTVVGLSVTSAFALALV

[2] = tested on: Zymoseptoria tritici on wheat variety Riband; assay: In planta fungicide dose response; format: in vivo; settings: 06STD024 ZtSDHC1 KO vs 06STD024 ZtSDHC3 KO
Method: The influence of the ZtSDHC3-driven SHA-SDHI resistance for the control of Z. tritici during wheat infection was assessed with a small range of commercial SDHIs (Fig 4C and 4D). In planta SDHIs sensitivity assays were performed with the 06STD024 isolate and its ZtSDHC1 or ZtSDHC3 KO mutants. A control strain (705) devoid of the ZtSDHC3 gene but more aggressive than IPO323 on wheat variety Riband was also included for comparison (Fig 4C and 4D).
Wheat (Triticum aestivum) variety Riband was grown in pots (d = 6.5cm), at a density of 4 plants per pot and treated with the growth regulator CCC (Chlorcholinchlorid; Chlormequat; 5 ml / pot, 0.4% solution) 4 days after sowing. Wheat plantlets were maintained in a climatic room at 18°C, 60% humidity and under a 12h light regime (high intensity). Fungicide applications were performed on 14 days old plantlets for which leaf 2 is the fully expanded target leaf. Fungicide treatments were performed using a custom-made track sprayer adjusted at 200L.ha^-1 (Nozzle: Lechler, orange LU90-01). The fungicides used were Solatenol EC100 (Elatus Plus, benzovindyflupyr), Isopyrazam EC125 (Seguris Flexi or Reflect), Adepidyn EC100 (research formulation of pydiflumetofen). […] In planta EC50 were calculated using the software GraphPad Prism v6.08.

[3] = tested on: SQR (SDHC / altC) of IPO323 pTet::SDHC3 transformant, induced; assay: Succinate-quinone (SQR) SDHI sensitivity assay on purified mitochondria, IPO323 pTet::SDHC3 induced; format: biochemical, Zymoseptoria tritici; settings: IC50 ratio compared to IPO323 values
Method: (§1) Succinate-ubiquinone oxidoreductase (SQR) inhibition assays were performed on mitochondrial extracts from a panel of strains that were (i) either carrying a unique C-subunit encoding gene (ZtSDHC1, ZtSDHC1_A84I or Zt-SDHC3), or (ii) carrying two C-subunit encoding genes ZtSDHC1 and ZtSDHC3 (Table 1).
(§2) Biomass production, mitochondrial extraction and purification were performed as described in [14]. Succinate: ubiquinone/DCPIP sensitivity tests were performed as described in [14] with minor modification.

[4] = target: WT-SQR (SDHC), IPO323 mitochondria (Zymoseptoria tritici, UniProt F9X9V6+F9XH52+O42772); assay: Succinate-quinone (SQR) SDHI sensitivity assay on purified mitochondria, IPO323; format: biochemical
Method: as §1
Biomass production, mitochondrial extraction and purification were performed as described in [14]. Succinate: ubiquinone/DCPIP sensitivity tests were performed as described in [14] with minor modification. The different mitochondrial suspensions were adjusted to similar initial velocity (1 OD595nm hour^-1) and inhibitor concentrations ranged between 0.047nM and 50μM with uniform 4x dilution steps (11 concentrations + DMSO control). Calculated absorbance slopes (OD/min) were used for IC50 calculations using GraphPad Prism 6.07 software non-linear curve fitting against log inhibitor concentrations.

[5] = target: SQR of 06STD024 (SDHC / altC) mitochondria (Zymoseptoria tritici, UniProt A0A1X7RQW2+F9X9V6+F9XH52+O42772); assay: Succinate-quinone (SQR) SDHI sensitivity assay on purified mitochondria, 06STD024; format: biochemical; settings: IC50 ratio compared to IPO323 values
Method: as §1, §2

[6] = target: altC-SQR (altC) of D024 SDHC1 KO mitochondria (Zymoseptoria tritici, UniProt A0A1X7RQW2+F9X9V6+O42772); assay: Succinate-quinone (SQR) SDHI sensitivity assay on purified mitochondria, 06STD024 SDHC1 KO; format: biochemical; settings: IC50 ratio compared to IPO323 values
Method: as §1, §2

[7] = target: SQR (SDHC / altC) of IPO323 pTet::SDHC3 transformant, repressed (Zymoseptoria tritici, UniProt A0A1X7RQW2+F9X9V6+F9XH52+O42772); assay: Succinate-quinone (SQR) SDHI sensitivity assay on purified mitochondria, IPO323 pTet::SDHC3 repressed; format: biochemical; settings: IC50 ratio compared to IPO323 values
Method: as §1, §2

CON(C(=O)c1cn(C)nc1C(F)F)[C@@H](C)Cc1c(Cl)cc(Cl)cc1Cl [Pydiflumetofen]
RF LC (resistance factor in liquid culture) ([1]; strain 06STD024): 6.3
RF LC (resistance factor in liquid culture) ([1]; strain 07STGB009): 5.5
RF LC (resistance factor in liquid culture) ([1]; strain 09STD041): 4.4
RF LC (resistance factor in liquid culture) ([1]; strain 09STD053): 1.4
RF LC (resistance factor in liquid culture) ([1]; strain 09STF011): 4.0
RF LC (resistance factor in liquid culture) ([1]; strain 09STF037): 1.8
RF LC (resistance factor in liquid culture) ([1]; strain 09STF112): 4.2
RF LC (resistance factor in liquid culture) ([1]; strain 09STIR20.3): 1.8
RF LC (resistance factor in liquid culture) ([1]; strain IPO323): 1
RF LC (resistance factor in liquid culture) ([1]; strain IPO94269): 1.1
In planta EC50 fold higher than 06STD024 ZtSDHC3 KO mutant [2]: 53 fold
RF (resistance factor), pTet Induced (SDHC / altC) [3]: 2.8

CON(C(=O)c1cn(C)nc1C(F)F)[C@@H](C)Cc1ccc(Cl)cc1Cl [Compound 3]
Fold increased potency compared to the matched pair compound 2 ([4]; IC50 ratio, WT-SQR values of Table 1): 7.6 fold
RF (resistance factor), 06STD024 (SDHC / altC) [5]: 39.5
RF (resistance factor), D024 SDHC1 KO (altC) [6]: 34.0

Cc1cc(OC(C)C)ccc1C(=O)C(C)(C)NC(=O)c1sccc1C [Isofetamid]
RF (resistance factor), D024 SDHC1 KO (altC) [6]: >55000

Cn1cc(C(=O)NCCc2ccc(Cl)cc2Cl)c(C(F)F)n1 [Compound 1]
RF (resistance factor), pTet Repressed (SDHC / altC) [7]: 1.4
RF (resistance factor), 06STD024 (SDHC / altC) [5]: 7.7
RF (resistance factor), pTet Induced (SDHC / altC) [3]: 4.3
RF (resistance factor), D024 SDHC1 KO (altC) [6]: 8.3

C[C@@H](Cc1ccc(Cl)cc1Cl)NC(=O)c1cn(C)nc1C(F)F [Compound 2]
RF (resistance factor), pTet Repressed (SDHC / altC) [7]: 2.9
Fold lower IC50 in comparison to compound 1 ([4]; WT-SQR): 21 fold
RF (resistance factor), 06STD024 (SDHC / altC) [5]: 78.0
RF (resistance factor), pTet Induced (SDHC / altC) [3]: 38.3
RF (resistance factor), D024 SDHC1 KO (altC) [6]: 67.1

CC(C)CC(C)c1sccc1NC(=O)c1cn(C)nc1C(F)(F)F (stereo not shown) [Penthiopyrad]
RF (resistance factor), pTet Induced (SDHC / altC) [3]: 1.3

O=C(Nc1ccccc1-c1ccc(Cl)cc1)c1cccnc1Cl [Boscalid]
RF (resistance factor), pTet Induced (SDHC / altC) [3]: 2.4

CC1=C(C(=O)Nc2ccccc2)SCCO1 [Carboxin]
RF (resistance factor), pTet Induced (SDHC / altC) [3]: 0.8
